Test results: US20240208984A1, “BIVALENT LIGANDS TO UNDERSTAND DIMERIZATION OF THE MU OPIOID RECEPTOR AND THE CHEMOKINE RECEPTOR CCR5 IN NEUROLOGICAL DISORDERS” (priority 2021, published 2024)

System: HIV-1BaL
Assay: Anti-HIV-1BaL activity (reverse transcriptase activity) in GHOST CCR5 cells
Conditions: read-out: Inhibition of HIV-1BaL EC50, RT activity, triplicate

CNC(=O)COCC(=O)NCCCCCCCNC(=O)COCC(=O)N[C@@H]1CC[C@@]2(O)[C@H]3Cc4ccc(O)c5c4[C@@]2(CCN3CC2CC2)[C@H]1O5 (single isomer, unassigned)
pEC50: < 4.00

pEC50: −log10 of the molar value.
